Results taken from patent US20140295402A1, “METHODS AND MATERIALS FOR PROLONGING USEFUL STORAGE OF RED BLOOD CELL PREPARATIONS AND PLATELET PREPARATIONS” (priority 2011, published 2014).

Assay: pH of platelet-rich plasma on exposure to CO2
Design: species or system human

In the case of `O=C=O` [CO2], the “pH of PRP after equilibration with CO2” value (99% CO2 under positive flow, typically within 60 seconds, fall from 7.2) is reported as 6.4 and the “pH of PRP after CO2” value (99.9% CO2 at air/fluid interface for approximately 60 seconds, dropped from average 7.4) is reported as 6.4.
